Anti-infective test results gathered from many reports (values: NIAID ChemDB through PubChem).

All rows: growth or infection tests; organism: HIV-1; cells: PBMC; measure: EC50

Lines come from different laboratories, so protocols vary. ECn: concentration that inhibits the pathogen or its effect by n%. Blank or dashed fields: not listed here.

{"compound": "Nc1ncnc2c1ncn2CCOCP(=O)(O)O", "strain": "RF", "method": "p24", "result": "1 µM"}
{"compound": "COc1c(C)c2c(c(O)c1C/C=C(\\C)CCC(=O)O)C(=O)OC2", "strain": "MDR (RT M41L D67N K70R M184V H208Y T215Y K219E) DRSM34", "mutations": "RT-M41L D67N K70R M184V H208Y T215Y K219E", "method": "p24", "result": "0.12 µM"}
{"compound": "CC1(C)CC[C@]2(C(=O)O)CC[C@]3(C)C(=CC[C@@H]4[C@@]5(C)CC[C@H](O[C@@H]6O[C@H](CO)[C@H](O[C@@H]7O[C@H](OO)[C@H](O)[C@H](O)[C@H]7O)[C@H](O)[C@H]6O)C(C)(C)[C@@H]5CC[C@]43C)[C@@H]2C1", "strain": "BaL", "method": "p24 / ELISA", "result": "1.96 µg/mL"}
{"compound": "O=S1(c2ccccc2)=NC(=S)Nc2ccccc21", "strain": "IIIB", "method": "cytopathic effect / XTT", "result": "0.4 µM"}
{"compound": "CCCCCCCCCc1ccc(OCCOCCOCCOCCOCCOCCOCCOCCOCCO)cc1", "method": "p24", "result": "2.195 µM"}
{"compound": "C=CCN(C(=O)OCc1ccc([N+](=O)[O-])cc1)C1CCN(C[C@H]2CN(C(=O)c3ccccc3Cl)C[C@@H]2c2ccccc2)CC1", "strain": "BaL", "method": "p24", "result": "<0.031 µM"}
{"compound": "Cc1ccnc2c1NC(=O)c1cccnc1N2C1CC1", "strain": "IIIB", "method": "cytopathic effect / XTT", "result": "0.056 µM"}
{"compound": "C[C@H]1/C=C/[C@@]2(C)CC[C@@H](C(C)(C)O)[C@@H]2[C@@H](O)C[C@](C)(O)/C=C/C1", "strain": "95BRRJ021 R5", "method": "p24", "result": "<25 µM"}
{"compound": "COC(=O)[C@H](C)NP(=O)(OC[C@H]1O[C@@H](N2C(=O)NC(=O)C(C)(Br)C2OC)C[C@@H]1N=[N+]=[N-])Oc1ccc(F)cc1", "method": "p24", "result": "0.07 µM"}
{"compound": "Cc1cn([C@H]2C[C@H](N=[N+]=[N-])[C@@H](CO)O2)c(=O)[nH]c1=O", "strain": "XM-AZT-resistant", "mutations": "RT-M41L D67N K70R T215Y K219Q", "method": "p24", "result": "<6.7 µM"}
{"compound": "Cc1cc(=O)c2ccc(N=C=S)cc2o1", "strain": "IIIB", "method": "p24 / ELISA", "result": "0.222 µM"}
{"compound": "NC1=Nc2c(ncn2CCC/C=C/P(=O)(O)O)C(=O)C1", "strain": "RF", "method": "p24", "result": "3.8 µM"}
{"compound": "CO[C@H]1/C=C/O[C@@]2(C)Oc3c(C)c(O)c4c(O)c(c5c(c4c3C2=O)NC2(CCN(CC(C)C)CC2)N=5)=NC(=O)/C(C)=C\\C=C\\[C@H](C)[C@H](O)[C@@H](C)[C@@H](O)[C@@H](C)[C@H](OC(C)=O)[C@@H]1C", "method": "RT activity", "result": "<10 µg/mL"}
{"compound": "S=C(NCCc1cccs1)Nc1ccc(Br)cn1", "strain": "NRTI resistant (RT Y181C) A17", "mutations": "RT-Y181C", "method": "p24", "result": "0.04 µM"}
{"compound": "CCCCCOC(=O)C[C@H](NP(=O)(CO[C@@H](CF)Cn1ccc2c(=O)[nH]c(N)nc21)Oc1ccccc1)C(=O)OCCCCC", "strain": "BaL", "method": "luciferase", "result": ">20 µM"}
{"compound": "COC(=O)[C@H](Cc1ccccc1)NP(=O)(O)OC[C@H]1C[C@@H](n2cnc3c(N)nccc32)[C@H](O)[C@@H]1O", "strain": "LAI", "result": "0.4 µM"}
{"compound": "COc1ccc(S(=O)(=O)N(CC(C)C)C[C@@H](O)[C@H](Cc2ccc(OC)c(Cl)c2)NC(=O)O[C@H]2CO[C@H]3OCC[C@H]32)cc1", "strain": "92UG037", "method": "p24 / luminescence", "result": "0.00032 µM"}
{"compound": "COC(=O)[C@H](C)NP(=O)(OCC1C/C1=C/n1cnc2c(N)ncnc21)Oc1ccccc1", "strain": "ERS104pre", "method": "p24", "result": "0.013 µM"}
{"compound": "COC(=O)[C@H](C)NP(=O)(OC[C@H]1O[C@@H](N2C(=O)NC(=O)C(C)(Br)C2OC)C[C@@H]1N=[N+]=[N-])Oc1ccc(OC)cc1", "method": "p24", "result": "0.05 µM"}
{"compound": "O=[N+]([O-])c1ccccc1S(=O)(=O)c1ccccc1", "strain": "IIIB", "method": "cytopathic effect / XTT", "result": "0.24 µM"}
{"compound": "Cc1ccc(-c2ccc3c(c2)C=C(C(=O)Nc2ccc(C[N+](C)(C)C4CCOCC4)cc2)CCC3)cc1", "strain": "KK", "method": "p24", "result": "0.0016 µM"}
{"compound": "Nc1nc2c(ccn2C[C@H](CF)OCP(=O)(O)O)c(=O)[nH]1", "strain": "BaL", "method": "luciferase", "result": ">100 µM"}
{"compound": "O=c1c(O)c(-c2ccc(O)c(O)c2)oc2cc(O)cc(O)c12", "method": "p24", "result": "<40 µM"}
{"compound": "Nc1nc(=O)n([C@@H]2CS[C@H](CO)O2)cc1F", "strain": "BI-RG587-resistant", "method": "RT activity", "result": "0.0001 µM"}
{"compound": "Cc1ccnc2c1NC(=O)c1cccnc1N2C1CC1", "strain": "NRTI resistant (RT Y181C K103N) A17 variant", "mutations": "RT-Y181C K103N", "method": "p24", "result": ">100 µM"}
{"compound": "O=c1[nH]cnc2c1ncn2[C@H]1CC[C@@H](CO)O1", "strain": "7898 CLADE B CLADE B", "method": "p24", "result": "0.369 µM"}
{"compound": "c1cc(CN2CCCNCCNCCCNCC2)ccc1CN1CCCNCCNCCCNCC1", "strain": "DJ258 CLADE A R5", "method": "p24", "result": ">0.5 µM"}
{"compound": "O=c1[nH]cnc2c1ncn2[C@H]1CC[C@@H](CO)O1", "strain": "RF", "method": "p24", "result": "0.7 µM"}
{"compound": "CSC(=S)O[C@H]1C[C@H](n2cc(C)c(=O)[nH]c2=O)O[C@@H]1CO", "strain": "LAV", "result": ">100 µM"}
{"compound": "CCO/N=C(\\c1ccc(Br)cc1)C1CCN(C2(C)CCN(C(=O)c3c(C)cc[n+]([O-])c3C)CC2)CC1", "strain": "93MW960 R5 CLADE C", "method": "p24", "result": "0.005 µM"}
{"compound": "CCO/N=C(\\c1ccc(Br)cc1)C1CCN(C2(C)CCN(C(=O)c3c(C)cc[n+]([O-])c3C)CC2)CC1", "method": "p24 / ELISA", "result": ">0.16 µM"}
{"compound": "O=C(NCc1ccc(F)cc1)c1nc(N2CCCCS2(=O)=O)c2cccnc2c1O", "strain": "1357 Primary R5 strain", "method": "p24", "result": "<0.008 µM"}
{"compound": "S=C(NCCc1cccs1)Nc1ccc(Br)cn1", "strain": "S762-4 Clinical isolate NRTI-resistant", "mutations": "RT-M41L T215Y", "method": "p24", "result": "0.04 µM"}
{"compound": "Nc1nc(NC2CC2)c2ncn([C@H]3C=C[C@@H](CO)O3)c2n1", "strain": "BRU PITT.(RT-K65R)", "mutations": "RT-K65R", "method": "cytopathic effect / MTT", "result": "19 µM"}
{"compound": "CC(C)OC(=O)OCOP(=O)(CO[C@H](C)Cn1cnc2c(N)ncnc21)OCOC(=O)OC(C)C", "strain": "BaL", "method": "luciferase", "result": "0.068 µM"}
{"compound": "CCO/N=C(\\c1ccc(Br)cc1)C1CCN(C2(C)CCN(C(=O)c3c(C)cc[n+]([O-])c3C)CC2)CC1", "strain": "R5-16(PR-A71T) R5 clinical isolate", "mutations": "PR-A71T", "method": "p24", "result": "0.0012 µM"}
{"compound": "O=c1[nH]cnc2c1ncn2[C@H]1CC[C@@H](CO)O1", "strain": "NL4-3 WT", "method": "p24", "result": "<18 µM"}
{"compound": "COC(=O)[C@H](C)NP(=O)(OC[C@@H]1CC[C@H](N2C(=O)NC(=O)C(C)(Br)C2OC)O1)Oc1ccccc1", "method": "p24", "result": "3.322 µM"}
{"compound": "COP(=O)(N[C@H]1C[C@H](n2cc(C)c(=O)[nH]c2=O)O[C@@H]1CO)OC", "strain": "LAV", "result": ">100 µM"}
{"compound": "N#Cc1cn(C[C@@H](CF)OCP(=O)(O)O)c2nc(N)[nH]c(=O)c12", "strain": "NL4-3", "method": "luciferase", "result": ">100 µM"}
{"compound": "Cc1cn([C@H]2C[C@H](N=[N+]=[N-])[C@@H](CO)O2)c(=O)[nH]c1=O", "strain": "IIIB", "method": "RT activity", "result": "0.04 µM"}

4 of the rows above, restated:

compound | strain | mutations | method | result
COc1c(C)c2c(c(O)c1C/C=C(\C)CCC(=O)O)C(=O)OC2 | MDR (RT M41L D67N K70R M184V H208Y T215Y K219E) DRSM34 | RT-M41L D67N K70R M184V H208Y T215Y K219E | p24 | 0.12 µM
O=S1(c2ccccc2)=NC(=S)Nc2ccccc21 | IIIB | - | cytopathic effect / XTT | 0.4 µM
N#Cc1cn(C[C@@H](CF)OCP(=O)(O)O)c2nc(N)[nH]c(=O)c12 | NL4-3 | - | luciferase | >100 µM
C=CCN(C(=O)OCc1ccc([N+](=O)[O-])cc1)C1CCN(C[C@H]2CN(C(=O)c3ccccc3Cl)C[C@@H]2c2ccccc2)CC1 | BaL | - | p24 | <0.031 µM